Results of unrelated studies side by side (data: NIAID ChemDB).

Common to all: tests in culture; agent: Mycobacterium tuberculosis

ECn is the concentration giving n% inhibition of infection, replication or growth. An empty or dashed field is not shown. Percent inhibition refers to the dose given; in toxicity tests it is the harm to the cells. Rows are shuffled and stem from different studies. MIC50, MIC90 and the like: level of inhibition, or share of isolates inhibited. MIC bound: limit read from a one-dose screen. Two numbers with a dash give a range or band.

SMILES	cells	strain or isolate	mutations	read-out	tested at	read by	value
CO[C@@H]1C/C=C\C=C\C[C@H](C)[C@@H](O)C[C@@H](O)[C@H](C)[C@H](O)CC(=O)O[C@H]([C@H](C)[C@H](O)/C=C(\C)CC/C=C/C=C/CC(O)CC(C)CCC(=O)O)C[C@H](O)CCC1		H37Rv		MIC		resazurin / absorbance	0.4 µg/mL
O=C(O)CCC1NC(/C(=C\c2ccccc2O)NC(=O)c2ccccc2)OC1=O				inhibition	0.5 µM	BACTEC	0%
CN(C)c1ccc(C2C3=C(CCCC3=O)OC3=C2C(=O)CCC3)cc1		H37Ra		MIC		resazurin	≥3.125 µg/mL
O=C(CN1CCCC1)N/N=C\C(=O)c1ccc(Oc2ccccc2)cc1				MIC			>50 µg/mL
Fc1ccc(-c2nnc3sc(COc4ccc5ccccc5c4)nn23)cc1		Clinical isolate MDRTB	Isoniazid- and rifampin-resistant	MIC			4 µg/mL
Cc1cc(=O)[nH]o1		H37Rv		MIC		BACTEC	≥12.5 µg/mL
CC(C)(C)c1ccccc1OCCCON1C(N)=NC(N)=NC1(C)C		H37Rv	Overexpressing DHFR	MIC90		resazurin / fluorescence	2 µM
CC(C)=NOC(=O)CNC(=O)C(Cc1ccccc1)NC(=O)C(C)NC(=O)OC(C)(C)C		H37Rv		inhibition	6.25 µg/mL	resazurin	34%
CC1(C)Cc2cc(O)c(Cc3ccccc3)c(=O)n2C1		H37Ra		MIC			>128 µg/mL
COc1cc(OC)c2c(=O)cc(-c3cccnc3)oc2c1		H37Rv		inhibition	12.5 µg/mL	BACTEC	15%
O=Nc1c2c3nn[nH]n3c3ccc(Br)cc3c-2c2ccccc12		H37Rv		inhibition	6.25 µg/mL	BACTEC / radiometric	43%
C=C1C(=O)N2c3ccccc3C(C)(C)C2(S)C(=O)N1C	VERO	H37Rv		MIC			6.25 µg/mL
C=CC(C)(C)c1cc(/C=C/C(=O)c2ccc(O)cc2)c(OC)cc1O				MIC			7.1 µg/mL
Cc1ccc2c(c1)c1c3n2CCN(C(=S)Nc2ccccc2)C3CCC1		H37Rv		MIC			1000 µg/mL
O=C1OC(CCl)CN1/N=C/c1ccc([N+](=O)[O-])o1		H37Rv		MIC bound		resazurin	>6.25 µg/mL
O=c1oc2cc3n(c(=O)c2c(O)c1Cc1ccccc1)CCC3		H37Ra		MIC			≥256 µg/mL
CN(C)c1cc(N)c(Cc2c(N)cc(N(C)C)cc2Cl)c(Cl)c1		H37Rv		MIC bound		BACTEC	>12.5 µg/mL
CC[C@@H](C)[C@@H]1NC(=O)[C@@H](Cc2ccccc2)CC(=O)CN(C)C(=O)[C@H]([C@H](C)CC)NC(=O)[C@@H](Cc2ccccc2)OC(=O)CN(C)C1=O				MIC			6–12 µg/mL
O=C(O)c1c(O)cc(=O)n2c1CCC2		H37Ra		MIC			>256 µg/mL
O=C(N/N=C/c1ccc([N+](=O)[O-])s1)c1ccccc1		H37Rv		inhibition	6.25 µg/mL		96%
CCCc1nnc2c3c(c4cc(Br)ccc4n12)-c1ccccc1C3=O		H37Rv		inhibition	6.25 µg/mL	BACTEC / radiometric	72%
Cc1ccc2c(c1)c1c3n2CCN(CC(O)CN)C3CCC1		H37Rv		MIC			32 µg/mL
Cn1c(=O)nc2n(-c3ccc(F)cc3)c3ccccc3nc-2c1=O		H37Rv		inhibition	12.5 µg/mL	BACTEC	27%
O=[N+]([O-])c1ccc(OCc2nn3c(Cc4ccc5ccccc5c4)nnc3s2)cc1		Clinical isolate MDRTB	Isoniazid- and rifampin-resistant	MIC			168.5 µg/mL
CC1(O)C2=C(c3cc(Br)ccc3N3CCN=C23)c2ccccc21		H37Rv		inhibition	6.25 µg/mL	BACTEC / radiometric	52%
CN(C)c1ccc(/C=C/C/C=N/NC(=O)c2ccc(F)cc2)cc1		H37Rv		EC50			>6.25 µg/mL
CCCCN1CCN(c2ccc3nc(-c4ccc5nc(-c6ccc(OCC)cc6)[nH]c5c4)[nH]c3c2)CC1		H37Ra		MIC90		broth dilution / turbidity	1.78 µg/mL
O=S(=O)(SC(=S)NCCNC(=S)SS(=O)(=O)c1ccc(Cl)cc1)c1ccc(Cl)cc1		H37Rv		inhibition	6.25 µg/mL	resazurin	50%
C=C1CC[C@H]2[C@@H]3C(C(C)C)=CC[C@]3(C)C(=O)C[C@]2(C)C[C@@H]1O		H37Rv		inhibition	6.25 µg/mL		0%
Cc1ccc2c(c1)c1c3n2CCN(CC(O)CNC(C)C)C3CCC1		H37Rv		MIC			16 µg/mL
O=C(OCCN=c1c2ccccc2ccc2ccccc12)c1ccc([N+](=O)[O-])cc1		H37Rv		MIC bound		BACTEC	>12.5 µg/mL
CC1(C)N=C(N)N=C(N)N1OCCSCc1cc(Cl)sc1Cl		H37Rv		MIC90		resazurin / fluorescence	0.5 µM
C=C(C)C(C)(C)CC[C@@H](C)C1CC[C@@]2(C)C3CC[C@@H]4C(C)(C)C(=O)CC[C@]4(C)C3=CC[C@]12C		H37Rv		MIC			64 µg/mL
Cc1nn(C(=S)S)c(C)c1N=Nc1ccccc1Cl	VERO	H37Rv		MIC			1.56 µg/mL
O=C(CN1CCOCC1)N/N=C\C(=O)c1ccccc1				MIC			>50 µg/mL
COC(=O)C1=CO[C@H](C)[C@@H]2CN3CCc4c([nH]c5cc(OC)ccc45)[C@@H]3C[C@H]12		H37Rv		inhibition	12.5 µg/mL	BACTEC	-12%
O=C1CCCC2=C1C(c1cccc(O)c1)C1=C(CCCC1=O)O2		H37Ra		MIC		resazurin	≥0.4 µg/mL
CCc1cc(C(C)=O)ccc1OCCCON1C(N)=NC(N)=NC1(C)C		H37Rv		MIC90		resazurin / fluorescence	0.5 µM
O=C(N/N=C/c1ccc([N+](=O)[O-])cc1)c1ccc(F)cc1		H37Rv		MIC			>6.25 µg/mL
Cc1c2ccncc2c(C)c2c1[nH]c1ccc(O)cc12	VERO	H37Rv		MIC		resazurin	1.56 µg/mL
COc1cc(/C=N/N=c2\scc(-c3cc4cc(Br)ccc4oc3=O)n2Cc2ccccc2)ccc1O		H37Rv		MIC			>6.25 µg/mL
Cc1ccc2c(c1)c1c3n2CCN(CC(O)CNCCCCN(C)C)C3CCC1		H37Rv		MIC			16 µg/mL
COc1ccc(-c2nc3c(N)nc(N)nc3nc2C(C)C)cc1		H37Rv	Overexpressing DHFR	MIC90		resazurin / fluorescence	250 µM
O=c1oc2ccc(Br)cc2cc1-c1cs/c(=N\N=C\c2cc([N+](=O)[O-])ccc2O)n1Cc1ccccc1		H37Rv		inhibition	6.25 µg/mL		11%
Oc1cccc2c1[C@H](O)[C@H]1O[C@H]1C21Oc2cccc3cccc(c23)O1				MIC			50 µg/mL
Cc1cc(=O)[nH]c2cc(N(C)C)ccc12		H37Rv		inhibition	12.5 µg/mL	BACTEC	37%
C[C@H]1COc2c(N3CCN(C)CC3)c(F)cc3c(=O)c(C(=O)O)cn1c23		25 isolates		MIC90			0.39 µg/mL
O=C1CCCC2=C1C(c1cccc([N+](=O)[O-])c1)C1=C(CCCC1=O)O2		H37Ra		MIC		resazurin	≥0.4 µg/mL
CC(=O)NC[C@H]1CN(c2ccc(N3CCOCC3)c(F)c2)C(=O)O1		117 strains		Geometric mean MIC			0.506 µg/mL
COc1c(N2CCNC(C)C2)c(F)cc2c(=O)c(C(=O)O)cn(C3CC3)c12		H37Rv		MIC			0.1 µg/mL
Clc1ccc(OCc2nn3c(-c4ccc(Br)cc4)nnc3s2)c(Cl)c1		Clinical isolate MDRTB	Isoniazid- and rifampin-resistant	MIC			16 µg/mL
S=c1nc(-c2ccncc2)[nH][nH]1		H37Rv		MIC		BACTEC	≥12.5 µg/mL
O=[N+]([O-])c1ccc(OCc2nn3c(-c4ccc(Cl)cc4)nnc3s2)cc1		Clinical isolate MDRTB	Isoniazid- and rifampin-resistant	MIC			2 µg/mL
CCCCCCc1nnc2c3c(c4cc(Br)ccc4n12)-c1ccccc1C3=O		H37Rv		inhibition	6.25 µg/mL	BACTEC / radiometric	47%
O=C(CN1CCCC1)N/N=C\C(=O)c1ccccc1				MIC			>50 µg/mL
CC[C@@H](/C=C/[C@@H](C)[C@H]1CCC2C34C=CC5(C[C@@H](O)CC[C@]5(C)C3CC[C@@]21C)OO4)C(C)C				MIC			2.5 µg/mL
CC1(C)NC(N)N=C(N)N1OCCCOc1ccc2ccccc2c1		H37Rv	Overexpressing DHFR	MIC90		resazurin / fluorescence	23.4 µM
CNc1ccccc1C(=O)O[C@@H]1[C@@H](C)[C@]2(O)[C@@H]3C=C(C)C(=O)[C@H]3CC(C)=C[C@H]2[C@]2(C)C(C)(C)[C@]12OC(C)=O				MIC			50 µg/mL
Cc1c(C(=O)O)nc(N)[nH]c1=O		H37Rv		inhibition	12.5 µg/mL	BACTEC	0%
COC(=O)Nc1ccc(S(=O)(=O)N2CCn3c4c(c5cc(C)ccc53)CCCC42)cc1		H37Rv		MIC			500 µg/mL
CC[C@@H](CO)NCCN[C@@H](CC)CO		ATCC 27294		MIC			14.4 µM
CCC(C)(O)c1cnc(CC(C)C)c(=O)n1O		H37Rv		MIC		BACTEC	≥12.8 µg/mL
COc1ccc2cc1Oc1ccc(cc1)CCC(=O)OCCC2		H37Rv		EC50		resazurin	>100 µg/mL
O=C(CN1CCCCC1)N/N=C\C(=O)c1ccc(Sc2ccccc2)cc1				MIC			>50 µg/mL
O=C(N/N=C/c1ccc([N+](=O)[O-])s1)c1ccc([N+](=O)[O-])cc1		H37Rv		inhibition	6.25 µg/mL		98%
Nc1ccc(C(=O)O)c(O)c1		BCG		MIC50			1.5 µg/mL
Cc1cc(NC(=O)c2ccc(N=Nc3cc(S(=O)(=O)[O-])c4ccccc4c3O)cc2)ccc1N=Nc1ccc2cc(S(=O)(=O)[O-])cc(S(=O)(=O)[O-])c2c1.[Na+].[Na+].[Na+]		H37Rv		inhibition	12.5 µg/mL	BACTEC	0%
O=C(CSc1nnc(-c2ccncc2)s1)Nc1ccccc1Cl		H37Rv		MIC		turbidity / absorbance	6.81 µM
C=C(C)C1CC2=C(O1)C(=O)c1ccccc1C2=O		H37Rv		inhibition	6.25 µg/mL	resazurin	99%
NNC(=O)c1ccncc1		ATCC 25177		MIC			0.22 µM
C=CC(C)(C)c1c2c(c(OC)c3ccc(=O)oc13)C(=O)CC(C)(C)O2				MIC			50 µg/mL
O=c1oc2ccc(Br)cc2cc1-c1cs/c(=N\N=C\c2cc(Br)ccc2O)n1Cc1ccccc1		H37Rv		MIC			>6.25 µg/mL
Cc1cc2c3ccccc3[nH]c(=O)n2n1		H37Rv		MIC bound		BACTEC	>12.5 µg/mL
Fc1ccc(OCc2nn3c(Cc4ccc5ccccc5c4)nnc3s2)cc1		Clinical isolate MDRTB	Isoniazid- and rifampin-resistant	MIC			8 µg/mL
COc1ccc(/C=N/N=c2\scc(-c3cc4ccccc4oc3=O)n2Cc2ccccc2)cc1		H37Rv		MIC			>6.25 µg/mL
CCOC(=O)c1c(O)c(Cc2ccccc2)c(=O)n2c1CCC2		H37Ra		MIC			256 µg/mL
NC(=O)c1cnccn1		H37Ra		MIC		resazurin	3.125 µg/mL
O=C(N/N=C/c1ccc([N+](=O)[O-])o1)c1ccc(F)cc1		H37Rv		inhibition	6.25 µg/mL		72%
CO[C@H]1/C=C/O[C@@]2(C)Oc3c(C)c(O)c4c(O)c(c(/C=N/N5CCN(C)CC5)c(O)c4c3C2=O)NC(=O)/C(C)=C\C=C\[C@H](C)[C@H](O)[C@@H](C)[C@@H](O)[C@@H](C)[C@H](OC(C)=O)[C@@H]1C		H37Rv		MIC			0.1 µg/mL
O=C(N/N=C/c1cccc(Cl)c1)c1ccc(F)cc1		H37Rv		MIC			>6.25 µg/mL
O=C(CN1CCCC1)N/N=C\C(=O)c1ccc(-c2ccccc2)cc1				MIC			>50 µg/mL
Cc1cc(C)cc(OCCCON2C(N)=NC(N)=NC2(C)C)c1		H37Rv		MIC90		resazurin / fluorescence	1 µM
O=c1oc2ccccc2cc1-c1cs/c(=N\N=C\c2ccc(Br)cc2)n1Cc1ccccc1		H37Rv		MIC			>6.25 µg/mL
Fc1ccc(OCc2nn3c(-c4ccc(Cl)cc4)nnc3s2)cc1		Clinical isolate MDRTB	Isoniazid- and rifampin-resistant	MIC			8 µg/mL
CCCCc1c(O)cc2n(c1=O)CCC2		H37Ra		MIC			256 µg/mL
O=C1c2ccccc2-c2c1c1n[nH]c(=S)n1c1ccc(Br)cc21		H37Rv		inhibition	6.25 µg/mL	BACTEC / radiometric	55%
O=c1c(-c2ccccc2)c(O)cc2n1CCC2		H37Ra		MIC			16 µg/mL
O=c1oc2ccc(Br)cc2cc1-c1cs/c(=N\N=C\c2ccc(F)cc2)n1Cc1ccccc1		H37Rv		inhibition	6.25 µg/mL		<11%

Repeating the final 11 entries:

SMILES,cells,strain or isolate,mutations,read-out,tested at,read by,value
O=C(N/N=C/c1ccc([N+](=O)[O-])o1)c1ccc(F)cc1,,H37Rv,,inhibition,6.25 µg/mL,,72%
CO[C@H]1/C=C/O[C@@]2(C)Oc3c(C)c(O)c4c(O)c(c(/C=N/N5CCN(C)CC5)c(O)c4c3C2=O)NC(=O)/C(C)=C\C=C\[C@H](C)[C@H](O)[C@@H](C)[C@@H](O)[C@@H](C)[C@H](OC(C)=O)[C@@H]1C,,H37Rv,,MIC,,,0.1 µg/mL
O=C(N/N=C/c1cccc(Cl)c1)c1ccc(F)cc1,,H37Rv,,MIC,,,>6.25 µg/mL
O=C(CN1CCCC1)N/N=C\C(=O)c1ccc(-c2ccccc2)cc1,,,,MIC,,,>50 µg/mL
Cc1cc(C)cc(OCCCON2C(N)=NC(N)=NC2(C)C)c1,,H37Rv,,MIC90,,resazurin / fluorescence,1 µM
O=c1oc2ccccc2cc1-c1cs/c(=N\N=C\c2ccc(Br)cc2)n1Cc1ccccc1,,H37Rv,,MIC,,,>6.25 µg/mL
Fc1ccc(OCc2nn3c(-c4ccc(Cl)cc4)nnc3s2)cc1,,Clinical isolate MDRTB,Isoniazid- and rifampin-resistant,MIC,,,8 µg/mL
CCCCc1c(O)cc2n(c1=O)CCC2,,H37Ra,,MIC,,,256 µg/mL
O=C1c2ccccc2-c2c1c1n[nH]c(=S)n1c1ccc(Br)cc21,,H37Rv,,inhibition,6.25 µg/mL,BACTEC / radiometric,55%
O=c1c(-c2ccccc2)c(O)cc2n1CCC2,,H37Ra,,MIC,,,16 µg/mL
O=c1oc2ccc(Br)cc2cc1-c1cs/c(=N\N=C\c2ccc(F)cc2)n1Cc1ccccc1,,H37Rv,,inhibition,6.25 µg/mL,,<11%